Results on one substance are retold here after paper PMC10235760.

In assay [1] the target is SARS-CoV-2 receptor binding domain, omicron subvariant BA5 (RBDBA5) (SARS-CoV-2) (UniProt P0DTC2). Description: SPR. On the technique in general: SPR reads the build-up and loss of mass on a sensor chip optically.
Assay [2] addresses SARS-CoV-2 receptor binding domain, wild type (RBD_(D614G)) (SARS-CoV-2) (UniProt P0DTC2). Put plainly: SPR.

As for antibody 10-40, the Kd (commonly the equilibrium constant for the complex coming apart) came to 0.266 nM in assay [1] and 0.0143 nM in assay [2]. The koff – broadly, the rate constant with which the complex falls apart – in assay [1] is 0.000212 s⁻¹; in assay [2], 4.23e-05 s⁻¹.
